A mixed list of measured activities; the numbers were collected in NIAID ChemDB.

Common to all: whole-cell or culture tests; species: Aspergillus fumigatus; endpoint: zone

Rows are shuffled and stem from different studies.

SMILES	strain or isolate	read by	dose	value
COC(=O)N[C@H](C(=O)NN(CC[C@@]1(Cc2ccccc2)C(=O)N(C2c3ccccc3C[C@H]2O)C[C@H]1O)Cc1ccc(-c2ccncc2)cc1)C(C)(C)C	RCMB 002003	agar diffusion / agar	10 mg/mL	18.8 mm
COc1ccc(C2C(C#N)=C(N)N=C3Sc4cc(C)ccc4N32)cc1OC	-	agar diffusion	5000 µg/mL	9 mm
COC(=O)N[C@H](C(=O)NN(CCC[C@@]1(Cc2ccccc2)C(=O)N(C2c3ccccc3C[C@H]2O)C[C@H]1O)Cc1ccc(-c2ccccn2)cc1)C(C)(C)C	RCMB 002003	agar diffusion / agar	10 mg/mL	18.8 mm
N#Cc1ccc(Nc2nc(Oc3cccc4cccnc34)nc(N3CCN(c4ccccc4)CC3)n2)cc1C(F)(F)F	MTCC 343	agar diffusion / agar	100 µg/disc	18 mm
COC(=O)N[C@H](C(=O)NN(CC[C@@]1(Cc2ccccc2)C(=O)N(C2c3ccccc3C[C@H]2O[Si](C)(C)C(C)(C)C)C[C@@H]1O[Si](C)(C)C(C)(C)C)Cc1ccc(Br)cc1)C(C)(C)C	RCMB 002003	agar diffusion / agar	10 mg/mL	18.8 mm
CCC(C)CCCCCCCCCCC(=O)N[C@H]1C[C@@H](O)[C@@H](NCCN2CCOCC2)NC(=O)C2[C@@H](O)[C@@H](C)CN2C(=O)C(CO)NC(=O)C([C@H](O)C(O)c2ccc(O)cc2)NC(=O)NC(=O)[C@@H]2C[C@@H](O)CN2C(=O)[C@H]([C@@H](C)O)NC1=O	AF-1	agar	5 mg/mL	24 mm
N#Cc1ccc(Nc2nc(Oc3ccnc4ccccc34)nc(N3CCN(c4ccccc4)CC3)n2)cc1C(F)(F)F	MTCC 343	agar	100 µg/mL	<10 mm
Cc1[nH]c2ccc(OC(F)(F)F)cc2c1CNC(=O)CCc1c[nH]c2ccc(Cl)cc12	NCIM 902	-	25 µg/mL	<10 mm
Clc1ccccc1C(c1ccccc1)(c1ccccc1)n1ccnc1	-	agar diffusion	0.1 µg/mL	21 mm
CCOC(=O)C[C@H](O)C[C@H](O)CC[C@@H]1[C@@H]2C(=CCC[C@@H]2C(=O)O[C@H](C)CC)C=C[C@@H]1C	-	agar diffusion	1 mg/disc	0 mm
C[C@@H]1[C@H](O)[C@@H](C)/C=C/C=C/C=C/C=C/C=C/C=C/C=C/[C@H](O[C@@H]2O[C@H](C)[C@@H](O)[C@H](N)[C@@H]2O)C[C@@H]2O[C@](O)(C[C@@H](O)C[C@@H](O)[C@H](O)CC[C@@H](O)C[C@@H](O)CC(=O)O[C@H]1C)C[C@H](O)[C@H]2C(=O)O	HIC 6094	-	100 µg/disc	30 mm
Nc1nc(COC(=O)C2(c3ccc(Cl)cc3)CC2)cs1	NCIM No. 902	-	25 µg/mL	<10 mm
N#Cc1ccc(Nc2nc(Oc3ccnc4ccccc34)nc(N3CCC(Cc4ccccc4)CC3)n2)cc1C(F)(F)F	MTCC 343	agar	100 µg/mL	<10 mm
COc1ccc(Cc2ccc(OC)c(-c3nnc4sc(-c5cccnc5)nn34)c2)cc1-c1nnc2sc(-c3cccnc3)nn12	HIC 6094	-	100 µg/disc	20 mm
CCC(C)CCCCCCCCCCC(=O)N[C@H]1C[C@@H](O)[C@@H](NCCN2CCOCC2)NC(=O)C2[C@@H](O)[C@@H](C)CN2C(=O)C(CO)NC(=O)C([C@H](O)C(NCCN2CCOCC2)c2ccc(O)cc2)NC(=O)NC(=O)[C@@H]2C[C@@H](O)CN2C(=O)[C@H]([C@@H](C)O)NC1=O	AF-1	agar	5 mg/mL	16 mm
Clc1ccc(COC(Cn2ccnc2)c2ccc(Cl)cc2Cl)c(Cl)c1	-	agar diffusion	100 µg/mL	15 mm
Brc1ccc2c(c1)Sc1cccnc1N2C/C=C/CN1c2ccc(Br)cc2Sc2cccnc21	MTCC 343	-	100 µg/mL	12 mm
C[C@@H]1[C@H](O)[C@@H](C)/C=C/C=C/C=C/C=C/C=C/C=C/C=C/[C@H](O[C@@H]2O[C@H](C)[C@@H](O)[C@H](N)[C@@H]2O)C[C@@H]2O[C@](O)(C[C@@H](O)C[C@@H](O)[C@H](O)CC[C@@H](O)C[C@@H](O)CC(=O)O[C@H]1C)C[C@H](O)[C@H]2C(=O)O	-	agar diffusion / agar	30 µg/disc	23 mm
COc1ccc(Cc2ccc(OC)c(-c3nnc4sc(-c5ccc(Cl)cc5)nn34)c2)cc1-c1nnc2sc(-c3ccc(Cl)cc3)nn12	HIC 6094	-	100 µg/disc	10 mm
Clc1ccc2c(c1)Sc1cccnc1N2CCCCN1c2ccc(Cl)cc2Sc2cccnc21	MTCC 343	-	100 µg/mL	11 mm
CCC(C)CCCCCCCCCCC(=O)N[C@H]1C[C@@H](O)[C@@H](Sc2ccccc2)NC(=O)C2[C@@H](O)[C@@H](C)CN2C(=O)C(CO)NC(=O)C([C@H](O)C(Sc2ccccc2)c2ccc(O)cc2)NC(=O)NC(=O)[C@@H]2C[C@@H](O)CN2C(=O)[C@H]([C@@H](C)O)NC1=O	AF-1	agar	2 mg/mL	15 mm
Clc1ccc2c(c1)Sc1cccnc1N2CCCCCCN1c2ccc(Cl)cc2Sc2cccnc21	MTCC 343	-	100 µg/mL	12 mm
Cn1cc(CCC(=O)NCCCc2c[nH]c3ccc(Cl)cc23)c2cc(Cl)ccc21	NCIM 902	-	25 µg/mL	<10 mm
Nc1nc(COC(=O)c2cccc([N+](=O)[O-])c2Cl)cs1	NCIM No. 902	-	25 µg/mL	<10 mm
N#Cc1ccc(Nc2nc(Oc3ccnc4ccccc34)nc(N3CCOCC3)n2)cc1C(F)(F)F	MTCC 343	agar	100 µg/mL	<10 mm
O=C(CN1CCN(c2ccccc2O)CC1)N1c2ccccc2Sc2ccccc21	-	agar diffusion	0.1 µg/mL	10 mm
Cc1ccc(NC(=O)c2ccccc2N)cc1	RCMB 02003	agar diffusion	25 µg/mL	12.2 mm
Cc1ccc(-n2cc(-c3ccc([N+](=O)[O-])cc3)c(-c3ccnc4nncn34)n2)cc1	-	agar diffusion / agar	1.25 mg/mL	3 mm
COc1ccc(Cc2ccc(OC)c(-c3nnc4sc(-c5cnccn5)nn34)c2)cc1-c1nnc2sc(-c3cnccn3)nn12	HIC 6094	-	100 µg/disc	22 mm
Nc1ccccc1C(=O)Nc1ccc(Cl)cc1	RCMB 02003	agar diffusion	25 µg/mL	9.4 mm
Cc1ccc(N=c2cc(N)nc3sc(S(N)(=O)=O)nn23)cc1	-	agar diffusion	5000 µg/mL	5 mm
COC(=O)N[C@H](C(=O)NN(CC[C@@]1(Cc2ccccc2)C(=O)N(C2c3ccccc3C[C@H]2O)C[C@H]1O)Cc1ccc(-c2ccccn2)cc1)C(C)(C)C	RCMB 002003	agar diffusion / agar	10 mg/mL	18.8 mm
Cc1c(CCCNC(=O)CCc2c[nH]c3ccc(Cl)cc23)c2cc(OC(F)(F)F)ccc2n1C	NCIM 902	-	25 µg/mL	<10 mm
CCC(C)CCCCCCCCCCC(=O)N[C@H]1C[C@@H](O)[C@@H](SCC(=O)OC)NC(=O)C2[C@@H](O)[C@@H](C)CN2C(=O)C(CO)NC(=O)C([C@H](O)C(O)c2ccc(O)cc2)NC(=O)NC(=O)[C@@H]2C[C@@H](O)CN2C(=O)[C@H]([C@@H](C)O)NC1=O	AF-1	agar	2 mg/mL	24 mm
N#Cc1ccc(Nc2nc(Oc3cccc4cccnc34)nc(N3CCOCC3)n2)cc1C(F)(F)F	MTCC 343	agar diffusion / agar	100 µg/disc	20 mm
CC(=O)C1=NN(c2ccccc2)C2=Nc3nccc(-c4nn(-c5ccccc5)cc4-c4ccc([N+](=O)[O-])cc4)c3C(=O)C12	-	agar diffusion / agar	2.5 mg/mL	11 mm
C(=C\CN1c2ccccc2Sc2cccnc21)/CN1c2ccccc2Sc2cccnc21	MTCC 343	-	100 µg/mL	13 mm
Nc1nc(COC(=O)c2c(F)cccc2Cl)cs1	NCIM No. 902	-	25 µg/mL	<10 mm
COC(=O)N[C@H](C(=O)NN(CC[C@@]1(Cc2ccccc2)C(=O)N(C2c3ccccc3C[C@H]2O)C[C@@H]1O)Cc1ccc(-c2cccnc2)cc1)C(C)(C)C	RCMB 002003	agar diffusion / agar	10 mg/mL	18.8 mm
Cc1ccc(-n2cc(-c3ccc([N+](=O)[O-])cc3)c(-c3ccon3)n2)cc1	-	agar diffusion / agar	1.25 mg/mL	9 mm
CCC(C)CCCCCCCCCCC(=O)N[C@H]1C[C@@H](O)[C@@H]([n+]2cc[nH]c2)NC(=O)C2[C@@H](O)[C@@H](C)CN2C(=O)C(CO)NC(=O)C([C@H](O)C(O)c2ccc(O)cc2)NC(=O)NC(=O)[C@@H]2C[C@@H](O)CN2C(=O)[C@H]([C@@H](C)O)NC1=O	AF-1	agar	2 mg/mL	24 mm
N#Cc1ccc(Nc2nc(Oc3cccc4cccnc34)nc(N3CCN(c4ccccn4)CC3)n2)cc1C(F)(F)F	MTCC 343	agar diffusion / agar	100 µg/disc	24 mm
N#CCCc1cccc(C(=O)OCc2csc(N)n2)c1	NCIM No. 902	-	25 µg/mL	<10 mm
CCC(C)CCCCCCCCCCC(=O)N[C@H]1C[C@@H](O)[C@@H](N=[N+]=[N-])NC(=O)C2[C@@H](O)[C@@H](C)CN2C(=O)C(CO)NC(=O)C([C@H](O)C(N=[N+]=[N-])c2ccc(O)cc2)NC(=O)NC(=O)[C@@H]2C[C@@H](O)CN2C(=O)[C@H]([C@@H](C)O)NC1=O	AF-1	agar	2 mg/mL	19 mm
CCOC(=O)c1ccc(-c2nn(-c3ccccc3)cc2-c2ccc([N+](=O)[O-])cc2)nc1C	-	agar diffusion / agar	2.5 mg/mL	4 mm
Clc1ccc(COC(Cn2ccnc2)c2ccc(Cl)cc2Cl)c(Cl)c1	ATCC 16404	agar diffusion	500 µg/mL	20.9 mm

Zone: diameter of growth inhibition. Blank or dashed fields: not listed here.